{"sequences": {"note": "Amino acid sequences for entries named in this document (tags omitted). A change or cut given only in a name is not applied to a line headed by its entry.", "UniProt P0ACQ4": "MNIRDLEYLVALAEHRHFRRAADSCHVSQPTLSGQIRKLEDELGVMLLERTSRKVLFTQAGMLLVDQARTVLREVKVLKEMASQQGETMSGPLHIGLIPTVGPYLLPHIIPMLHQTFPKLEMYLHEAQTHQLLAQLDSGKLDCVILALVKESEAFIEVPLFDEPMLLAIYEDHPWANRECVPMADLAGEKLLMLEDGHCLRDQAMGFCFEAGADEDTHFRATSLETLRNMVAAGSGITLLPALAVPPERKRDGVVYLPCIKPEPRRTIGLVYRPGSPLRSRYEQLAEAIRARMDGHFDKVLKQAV"}, "source": "paper PMC3306370", "biological_target": "OxyR (E. coli) (Escherichia coli K12) (UniProt P0ACQ4)", "experiment": "EMSA", "conditions": "OxyR 58-290 pM monomer, EMSA: binding buffer as cited (ref 36), RT, 20 min, probe 21 pM, 5% native PAGE, recombinant protein, protein details: C-terminal His6 (pET-22b), label: 32P, probe letters rebuilt from the primers and the genome, part of a longer molecule", "note": "The exact form of at least one protein or probe is not confirmed. A negative result means that nothing was seen under these conditions.", "data": [{"sequence": "CCTATCAAATGTGAATCGATTAATAGCTTACATTAAAAAGCAAACCCTAGCAATGAACTTTTTTTGTTAGGTATTACCTACAACTAAAGGTGGAGTGCTAGAGTTCATGA (double strand) [probe (a)]", "values": [{"measurement": "binding result", "setting": "200 mM DTT", "value": "no binding"}, {"measurement": "binding result", "setting": "no DTT, +/-200 mM DTT", "value": "no binding"}]}]}
